# PSTVd loop 6 mutant pool in Nicotiana benthamiana

Values reported by Wu et al. 2024 (doi:10.1371/journal.ppat.1012142).

Region: loop 6 of PSTVd (intermediate strain), upper and lower strand joined, each 5' to 3', the first 5 letters being the upper strand, closing pairs included. Wild type: UGACCGCGAG. Varied positions (N): UNNNCGNNNG.

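A pool of all variants was put on leaves of three Nicotiana benthamiana plants. Samples came from the inoculated region at 5 days, the leaf margin at 10 and upper systemic leaves at 12.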

Numbers give reads per thousand; 0 = not seen among the reads, higher = more abundant.
Each site shows the three plants.
"Pool" is the share in the plasmid pool used as inoculum, on the same scale.
The inoculated region was read from the minus strand, the other sites from the plus strand.
IR is the inoculated region, LM the leaf margin, Sys the systemic leaves.
The authors trace changes outside the varied positions to PCR and sequencing errors or to mutation in the plant; presence does not show that a variant is infectious alone.
Wild type was 20.7 per thousand in the pool and the most common sequence in every sample (inoculated region 195, 198, 203; leaf margin 629, 591, 734; systemic leaves 942, 870, 868).
Samples held 36,220 to 57,551 reads, so the smallest values rest on one or two reads.

sequence,pool,IR,LM,Sys
UGAUCGACUG,0.392,0.0869 0.144 0.0553,0 0 0,0 0 0
UGAUCGAGAG,0.288,0.660 0.719 0.535,0.110 0.101 0.0464,0 0 0
UGAUCGAGCG,0.366,0.0869 0.0719 0.129,0.0276 0 0,0 0 0
UGAUCGAGGG,0.327,0.0348 0.126 0.0553,0 0 0,0 0 0
UGAUCGAGUG,0.196,0.104 0.0719 0.0738,0 0 0,0 0 0
UGAUCGAUAG,0.353,0.174 0.126 0.111,0 0 0.162,0 0 0
UGAUCGAUCG,0.301,0.139 0.0898 0.0738,0 0 0.0232,0 0 0
UGAUCGAUGG,0.340,0.156 0.108 0.0738,0 0 0.0232,0 0 0
UGAUCGAUUG,0.392,0.139 0.0898 0.0922,0 0 0,0 0 0
UGAUCGCAAG,0.170,0.765 0.629 0.738,0 0.0757 0.116,0 0 0
UGAUCGCACG,0.366,0.209 0.126 0.0738,0 0 0,0 0 0
UGAUCGCAGG,0.248,0.122 0.0719 0.0369,0 0 0,0 0 0
UGAUCGCAUG,0.157,0.122 0.0539 0.0738,0 0 0,0 0 0
UGAUCGCCAG,0.144,0.0521 0.0180 0.0738,0.0276 0 0.0464,0.0180 0.0404 0
UGAUCGCCCG,0.379,0.0869 0.180 0.0553,0.110 0 0,0 0 0.0205
UGAUCGCCGG,0.170,0.139 0.0539 0.0184,0 0 0,0 0 0
UGAUCGCCUG,0.314,0.156 0.108 0.0553,0 0.0757 0.0232,0 0 0
UGAUCGCGAG,0.340,0.400 0.287 0.369,0.497 0.908 0.255,0.377 0.162 0.328
UGAUCGCGCG,0.209,0.0869 0.0719 0.0922,0 0 0,0 0 0
UGAUCGCGCU,0.0131,0 0 0,0 0 0,0 0 0
UGAUCGCGGG,0.275,0.122 0.0359 0.111,0 0 0,0 0 0
UGAUCGCGUG,0.196,0.174 0.0719 0.0369,0 0.0252 0.0232,0 0 0
UGAUCGCUAG,0.0784,0.174 0.0719 0.129,0 0 0,0 0 0
UGAUCGCUCG,0.523,0.0695 0.0898 0.129,0 0 0.0232,0.0180 0 0
UGAUCGCUGG,0.157,0.104 0.0539 0.0553,0 0 0.0232,0 0 0
UGAUCGCUUG,0.549,0.0521 0.0719 0.129,0 0 0,0 0 0
UGAUCGGAAG,0.183,0.782 0.701 0.498,0 0.101 0.139,0 0 0
UGAUCGGACG,0.209,0.122 0.126 0.0553,0 0 0.0232,0 0 0.0205
UGAUCGGAGG,0.144,0.0348 0.108 0.0738,0 0 0,0 0 0
UGAUCGGAUG,0.340,0.122 0.0898 0.129,0 0 0,0 0 0
UGAUCGGCAG,0.261,0.921 0.557 0.406,0.0828 0.0757 0.0696,0 0 0
UGAUCGGCCG,0.235,0.104 0.0359 0.0922,0 0 0,0 0 0
UGAUCGGCGG,0.183,0.0521 0.0359 0.0553,0 0 0.0232,0 0 0
UGAUCGGCUG,0.353,0.782 0.539 0.572,0 0.101 0.139,0 0 0.0205
UGAUCGGGAG,0.353,0.851 4.08 6.31,1.13 1.41 0.975,0.162 0.586 4.29
UGAUCGGGCG,0.144,0.0869 0.0898 0.0738,0 0 0,0 0 0
UGAUCGGGGG,0.157,0.139 0.0539 0.111,0 0 0,0 0 0
UGAUCGGGUG,0.261,0.591 0.826 0.461,0.0828 0.0252 0.0696,0 0 0
UGAUCGGUAG,0.275,0.921 0.665 0.424,0.138 0.0504 0.0232,0 0 0
UGAUCGGUCG,0.366,0.122 0.0898 0.111,0.0276 0 0,0 0 0
UGAUCGGUGG,0.288,0.122 0.0180 0.0922,0 0.0504 0,0 0 0
UGAUCGGUUG,0.209,0.139 0.0719 0.0553,0 0 0.0232,0.0180 0 0
UGAUCGUAAG,0.209,0.0869 0.0359 0.0738,0 0 0,0 0 0
UGAUCGUACG,0.288,0.0869 0.144 0.111,0 0 0,0 0 0
UGAUCGUAGG,0.248,0.122 0.126 0.166,0 0 0,0 0 0
UGAUCGUAUG,0.392,0.0695 0.108 0.0553,0.248 0 0,0 0 0
UGAUCGUCAG,0.314,0.0521 0.0898 0.0184,0 0 0,0 0 0.0205
UGAUCGUCCG,0.105,0.156 0.108 0.0922,0.0276 0 0.0232,0 0 0
UGAUCGUCGG,0.340,0.0869 0.0898 0.111,0.0276 0 0,0 0 0
UGAUCGUCUG,0.261,0.0869 0.0719 0.0738,0 0.0252 0,0 0 0.0205
UGAUCGUGAG,0.275,0.139 0.0719 0.203,0 0 0,0 0 0
UGAUCGUGCG,0.261,0.0869 0.108 0.111,0.0276 0 0,0 0 0
UGAUCGUGGG,0.248,0.139 0.0898 0.0184,0 0 0,0.0180 0 0
UGAUCGUGUG,0.353,0.226 0.144 0.0922,0 0 0.0464,0 0 0
UGAUCGUUAG,0.471,0.122 0.162 0.0184,0 0.0252 0.0464,0 0 0.0205
UGAUCGUUCG,0.275,0.191 0.0539 0.0369,0.0276 0 0,0 0 0
UGAUCGUUGG,0.431,0.0695 0.162 0.148,0 0 0,0 0 0
UGAUCGUUUG,0.392,0.0695 0.0359 0.0738,0 0 0,0 0 0
UGAUCUCAUA,0.0131,0 0 0,0 0 0,0 0 0.0615
UGAUCUCGAG,0.0131,0 0.0180 0,0 0 0,0 0 0
UGCACAACGG,0.0131,0 0 0,0 0 0,0 0 0
UGCACCCGAG,0.0131,0 0 0,0 0 0,0 0 0

Extract of 6 entries:

{"sequence": "UGAUCGGGGG", "pool": "0.157", "IR": "0.139 0.0539 0.111", "LM": "0 0 0", "Sys": "0 0 0"}
{"sequence": "UGAUCGUUAG", "pool": "0.471", "IR": "0.122 0.162 0.0184", "LM": "0 0.0252 0.0464", "Sys": "0 0 0.0205"}
{"sequence": "UGAUCGUAUG", "pool": "0.392", "IR": "0.0695 0.108 0.0553", "LM": "0.248 0 0", "Sys": "0 0 0"}
{"sequence": "UGAUCGCUAG", "pool": "0.0784", "IR": "0.174 0.0719 0.129", "LM": "0 0 0", "Sys": "0 0 0"}
{"sequence": "UGAUCGCACG", "pool": "0.366", "IR": "0.209 0.126 0.0738", "LM": "0 0 0", "Sys": "0 0 0"}
{"sequence": "UGAUCGGGCG", "pool": "0.144", "IR": "0.0869 0.0898 0.0738", "LM": "0 0 0", "Sys": "0 0 0"}